PubChem BioAssay AID504761 | Drosophila RNAi Screening Center – 2011
Purpose: 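Insect host genes that dengue virus relies on to spread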 (primary screen). Cells: D.Mel-2 cells from Drosophila. Knock-down reagent: long dsRNA against Drosophila genes. Challenge: infection with dengue virus type 2; dose and infection time not stated. Measured: 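Per well on two replicate plates, imaging gave the percent of cells positive for viral envelope protein, ranked by infection, and a nuclear count of cells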. Direction: infection score: higher = more virus-infected cells; cell count: higher = more cells in the well. Call rule: 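Low infection ranks in the two replicates (chance level up to 0.065) followed by a retest with a 1.5-fold or larger significant decrease, p below 0.05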. Calls: active = confirmed: knock-down lowers infection; inactive = not picked or not confirmed.
The screen tested about 22,000 reagents; this is an unselected part of those that have a named target and a result. In the full data, 116 (0.52%) are marked active. 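Calls depend on retest data that are not deposited; infection was ranked per plate without normalising between plates; the unit of the infection score is not given.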 The raw values are shown without normalisation. A plus sign joins genes that one reagent is predicted to hit. Further read-outs or replicates are left out here. No sequences are given here. Not given: the amount of reagent, the time to read-out.

Noa36 [DRSC16761] — infection score, replicate 1: 2.54; cell count, replicate 1: 5190; outcome: inactive
nub [DRSC02498] — infection score, replicate 1: 0.55; cell count, replicate 1: 6309; outcome: inactive
nub [DRSC03583] — infection score, replicate 1: 13.5; cell count, replicate 1: 4447; outcome: inactive
nub [DRSC23066] — infection score, replicate 1: 0.77; cell count, replicate 1: 6396; outcome: inactive
nub [DRSC25610] — infection score, replicate 1: 3.71; cell count, replicate 1: 6356; outcome: inactive
nub [DRSC27113] — infection score, replicate 1: 39; cell count, replicate 1: 5449; outcome: inactive
nub [DRSC28839] — infection score, replicate 1: 0.44; cell count, replicate 1: 456; outcome: inactive
c12.2 [DRSC18751] — infection score, replicate 1: 2.53; cell count, replicate 1: 6528; outcome: inactive
c12.2 [DRSC26390] — infection score, replicate 1: 0.81; cell count, replicate 1: 6153; outcome: inactive

Next part, starting with the last 3 of the part before.
nub [DRSC28839] — infection score, replicate 1: 0.44; cell count, replicate 1: 456; outcome: inactive
c12.2 [DRSC18751] — infection score, replicate 1: 2.53; cell count, replicate 1: 6528; outcome: inactive
c12.2 [DRSC26390] — infection score, replicate 1: 0.81; cell count, replicate 1: 6153; outcome: inactive
CG3598 [DRSC18471] — infection score, replicate 1: 9.41; cell count, replicate 1: 1616; outcome: inactive
CG3598 [DRSC26825] — infection score, replicate 1: 7.93; cell count, replicate 1: 6100; outcome: inactive
CG8323 [DRSC07149] — infection score, replicate 1: 6.5; cell count, replicate 1: 6909; outcome: inactive
mfr [DRSC10543] — infection score, replicate 1: 0.78; cell count, replicate 1: 6657; outcome: inactive
CG12523 [DRSC09895] — infection score, replicate 1: 16.6; cell count, replicate 1: 6079; outcome: inactive
CG12523 [DRSC25151] — infection score, replicate 1: 2.91; cell count, replicate 1: 6355; outcome: inactive
CG31191 [DRSC15214] — infection score, replicate 1: 4.48; cell count, replicate 1: 6648; outcome: inactive
HSPC300 [DRSC22880] — infection score, replicate 1: 4.44; cell count, replicate 1: 5453; outcome: inactive
CG8851 [DRSC00718] — infection score, replicate 1: 2.02; cell count, replicate 1: 6348; outcome: inactive
CG8851 [DRSC29343] — infection score, replicate 1: 10.9; cell count, replicate 1: 5430; outcome: inactive
CG5612 [DRSC15844] — infection score, replicate 1: 3.37; cell count, replicate 1: 6348; outcome: inactive
SLIRP1 + anox [DRSC20542] — infection score, replicate 1: 6.4; cell count, replicate 1: 6220; outcome: inactive
